Article PMC5327383, “Pneumococcal galactose catabolism is controlled by multiple regulators acting on pyruvate formate lyase” (Scientific Reports, 2017)
For at least one entry, the source does not settle the construct or the ends of the probe. Where a protein sequence is shown, tags need not be part of it.

Target: T1, GlnR (Streptococcus pneumoniae D39) (UniProt A0A0H2ZRB1)
T1 sequence (looked up): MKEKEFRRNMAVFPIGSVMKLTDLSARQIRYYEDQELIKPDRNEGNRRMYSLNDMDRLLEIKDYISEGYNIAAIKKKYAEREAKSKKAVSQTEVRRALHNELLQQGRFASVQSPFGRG
Assay: EMSA
Conditions: 10 mM sodium formate; 30 mM KCl, 1 mM DTT, 1 mM EDTA, 10% glycerol; room temperature 20 min, 20 ul, ~30 ng DNA, 0.1-0.5 uM protein; recombinant protein; residues 1-118; protein details: His6 (pLEICS-01); label: none (SYBR Green stain); probe letters rebuilt from the primers and the genome

Q: With “CAGTTTGAAATAAAATATAGACTGTTTTAGAAAAGAAAGTGTAAAAATAGGGATTTTGCACTTGTTGAAATCGGTTACTTTATGGTATACTTGTC (double strand) [PpflB]” as the sequence, how does the Kd read?
A: 0.79 µM
